Source: US11839610B2 (priority 2022, dated 2023)

System: ACE2-293T cells

Cycleanine
cytotoxic to the ACE2-293T cells (in words): caused no damages
Cell Viability (%) (human): 98.59 ± 1.98%
